The record followed here is patent US6455558B1, “Biocide composition and use” (Avecia Limited, priority 1998, dated 2002).

This test deals with mixed inoculum of Aureobasidium pullulans, Fusarium solani, Penicillium funicularum, Scopulariopsis brevicaulis and Streptoverticillium waksmanii. Put plainly: Soil burial test of plasticised PVC strips containing biocide: weight loss after 20 weeks. To be noted: buried in inoculated potting compost, 25° C.

With “4,5-dichloro-N-n-octyl isothiazolin-3-one”, the “Actual % Weight Loss” value is, setting by setting: (amount 500 (ppm)) 7.398%; (amount 1000 (ppm)) 7.358%; (amount 2000 ppm) 7.818%; (amount 3000 (ppm)) 6.479%.
